Data as given in paper PMC5895659, “Mechanistic and Structural Insights Into the Unique TetR-Dependent Regulation of a Drug Efflux Pump in Mycobacterium abscessus” (Frontiers in Microbiology, 2018).

Key:
MAB_4384 (F57L) = target: T1, MAB_4384 (F57L) (UniProt B1MJU8); experiment: EMSA; details: severely impaired; EMSA: 280 nM fluorescein probe, 1X TAE, 1 h, room temperature, 6% native PAGE in 1X TAE; recombinant protein; label: 5' fluorescein
T1 sequence (looked up, limits assumed): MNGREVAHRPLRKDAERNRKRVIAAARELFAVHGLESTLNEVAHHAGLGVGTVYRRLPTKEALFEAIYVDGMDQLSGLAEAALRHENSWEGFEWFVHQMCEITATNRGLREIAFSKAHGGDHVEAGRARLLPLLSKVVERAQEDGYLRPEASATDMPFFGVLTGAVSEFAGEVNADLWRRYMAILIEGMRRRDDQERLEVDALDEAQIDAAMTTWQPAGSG

MAB_4384 (D14N) = target: T2, MAB_4384 (D14N) (UniProt B1MJU8); experiment: EMSA; details: severely impaired; EMSA: 280 nM fluorescein probe, 1X TAE, 1 h, room temperature, 6% native PAGE in 1X TAE; recombinant protein; label: 5' fluorescein
T2 sequence (looked up, limits assumed): T1 sequence (looked up, limits assumed) with D14N, L57F

**Q.** Which results are given for “CACTTCGCCATAAGTGGATTGACTCTATCCACTTTTACCCATAGA (double strand) [Probe 1 (IRS5/L5 operator)]”?
**A.** binding result (MAB_4384 (F57L)): binds more weakly; binding result (MAB_4384 (D14N)): binds more weakly

Where a chain is given by its changes, count along the chain named. For at least one entry, the source does not settle the construct or the ends of the probe. A weaker result is weaker than the reference pair of the same experiment. Where a protein sequence is shown, tags need not be part of it.
